Values from PubChem BioAssay AID504761 (Drosophila RNAi Screening Center, 2011).

- Purpose: 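Fly genes whose silencing reduces dengue virus type 2 infection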 (primary screen)
- Cell system: D.Mel-2 cells from Drosophila
- Reagents: long dsRNA against Drosophila genes
- Challenge: infection with dengue virus type 2; dose and infection time not stated
- Measurement: 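Cells stained for dengue envelope protein and imaged; percent of infected cells per well on duplicate plates, ranked by infection, with stained nuclei counted for cell number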
- Direction: infection score: higher = more virus-infected cells; cell count: higher = more cells in the well
- Rule for the call: 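Very low infection ranking in both replicate wells (chance probability at most 0.065), then a retest showing infection dropped 1.5-fold or more at p below 0.05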
- Calls: active = confirmed: knock-down lowers infection; inactive = not picked or not confirmed
In all, the deposit lists about 22,000 reagents; below is a random part of those that have a named target and a result. Of all reagents, 116 (0.52%) got an active call. 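Calls depend on retest data that are not deposited; infection was ranked per plate without normalising between plates; the unit of the infection score is not given.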 The raw values are shown without normalisation. Names joined by + are all predicted targets of the reagent. Not stated in the record: the amount of reagent, the time to read-out.

no.	Gene	PubChem SID	infection score, replicate 1	infection score, replicate 2	cell count, replicate 1	cell count, replicate 2	call
1	VAChT + ChAT	SID104193104	5.88	3.47	5681	5354	inactive
2	CG34434	SID104197926	0.7	0.58	6416	6674	inactive
3	CG34434	SID104205467	4.42	16.5	3890	6054	inactive
4	CG34434	SID104207030			447	378	inactive
5	mdy	SID104181351	4.2	0.8	5926	5839	inactive
6	mdy	SID104182042	12.6	9.43	6607	6246	inactive
7	CG12155	SID104202651	1.79	6.62	6152	6016	inactive
8	eas	SID104200121	5.63	3.69	7017	6674	inactive
9	eas	SID104207979	24.3	9.32	4352	4777	inactive
10	Rpi	SID104184375	3.92	7.88	6476	6332	inactive
11	Hr51	SID104186419	4.04	5.88	6741	6696	inactive
12	Hr51	SID104202188	1.96	2.2	6270	6876	inactive
13	CG10950	SID104185812	14.9	9.42	6413	4630	inactive
14	CG31231	SID104193100	5.32	5.55	5564	4614	inactive
15	CG31231	SID104206984	15.6	8.99	4404	5939	inactive
16	mei-41	SID104200142	3.65	1.83	6803	6324	inactive
17	D19A	SID104190925	4.84	9.28	5804	5139	inactive
18	D19A	SID104205511	5.14	6.51	6245	6694	inactive
19	nAChRbeta1	SID104187889	0.89	0.38	6648	6372	inactive
20	nAChRbeta1	SID104188520	8.95	8.5	2369	2942	inactive
21	Csl4	SID104182736	25.7	3.28	5918	1708	inactive
22	Csl4	SID104202061	4.53	2.87	6403	6444	inactive
23	VepD	SID104201821	4.99	3.52	5953	6586	inactive
24	VepD	SID104206197	33.5	12.5	5068	1778	inactive
25	Orp8	SID104194902	18.3	18.4	6787	6600	inactive
26	Orp8	SID104195504	4.52	1.81	6996	6352	inactive
27	Orp8	SID104207393	2.37		1474	399	inactive
28	CG13994	SID104182118	5.4	20.1	6002	4474	inactive
29	snky	SID104189630	2.47	0.85	6241	6826	inactive
30	CG6225	SID104195788	14.5	4.08	3098	5000	inactive
31	Pax	SID104181495	8.36	3.05	5824	5648	inactive
32	Pax	SID104182443	15.2	17.7	6515	6035	inactive
33	Pax	SID104182444	6.19	17.2	5571	5955	inactive
34	GstO2	SID104190483	15.2	17.5	4933	5248	inactive
35	GstO2	SID104207613	11.8	11.9	5508	2515	inactive
36	insc	SID104184487	2.19	5.49	6850	6760	inactive
37	CG2200	SID104199632	0.73	5.68	6446	6198	inactive
38	tra	SID104191197	2.88	1.3	5829	6233	inactive
39	wwk	SID104181733		4.99	624	6852	inactive
40	CG3604	SID104180410	1.18	1.77	6542	6736	inactive
41	UQCR-Q	SID104190678	4.21	12.7	5789	5781	inactive
42	CG12817 + CG12420	SID104202173	1.83	2.99	5804	6918	inactive
43	mbo	SID104195915	6.07	27.3	972	3590	inactive
44	CG13318	SID104194373	0.29	5.1	6287	6409	inactive
45	CG15296	SID104197775	1.87	1.03	6372	6435	inactive
46	CG15296	SID104204595	1.25	0.52	6545	6106	active
47	CG31337	SID104192773	10.7	4.43	6066	5640	inactive
48	CG3062	SID104198364	0.64	2.32	472	1814	inactive
49	daed + CG34174	SID104206184	4.3	8.36	6907	6469	inactive
50	CG42355	SID104187759	1.53	0.22	5758	5805	inactive
51	CG4115	SID104195337	14.1	1.95	6564	7446	inactive
52	CG13658	SID104194451	4.25	3.07	6357	6839	inactive
53	CG13658	SID104203980	10.4	9.31	5893	5369	inactive
54	CG7970	SID104188397	22.9	26.8	5372	5706	inactive
55	CG7970	SID104204634	11.3	2.86	5813	6746	inactive
56	Dscam2	SID104189990	2.27	1.02	6246	6159	inactive
57	Dscam2	SID104190810	0.7	0.35	5889	5697	inactive
58	Dscam2	SID104190811	2.43	1.11	5929	6041	inactive
59	Dscam2	SID104201969	12.5	1.58	6150	6577	inactive
60	Dscam2	SID104206764	11.3	11.4	4488	1614	inactive
61	Past1	SID104196576	1.09	16.5	6801	4319	inactive
62	Art1	SID104195855	15.1	6.07	5911	6246	inactive
63	CG7778	SID104182859	3.88	1.87	6233	6429	inactive
64	CG7778	SID104205857	15.9	12.8	5812	3908	inactive
65	Nplp4	SID104180183	23.7	11.4	3016	6532	inactive
66	CR18166	SID104197052	0.23	0.03	6203	6483	inactive
67	CR18166	SID104197939	4.1	17.1	4737	4568	inactive
68	CR18166	SID104206261	2.06	31.9	6687	5039	inactive
69	CG42262 (retired record)	SID104197420	2.71	4.36	6345	6586	inactive
70	CG42262 (retired record)	SID104197766	9.52	9.02	6409	6521	inactive
71	ng2 + ng1	SID104202977	3.36	4.06	5588	5645	inactive
72	Isha	SID104184248	6.24	30.5	4741	3789	inactive
73	inaD	SID104184486		8.41	393	832	inactive
74	inaD	SID104205660	30.4	3.49	5799	6126	inactive

Targets above whose gene name starts with D or d (8):
Gene	PubChem SID	infection score, replicate 1	infection score, replicate 2	cell count, replicate 1	cell count, replicate 2	call
D19A	SID104190925	4.84	9.28	5804	5139	inactive
D19A	SID104205511	5.14	6.51	6245	6694	inactive
daed + CG34174	SID104206184	4.3	8.36	6907	6469	inactive
Dscam2	SID104189990	2.27	1.02	6246	6159	inactive
Dscam2	SID104190810	0.7	0.35	5889	5697	inactive
Dscam2	SID104190811	2.43	1.11	5929	6041	inactive
Dscam2	SID104201969	12.5	1.58	6150	6577	inactive
Dscam2	SID104206764	11.3	11.4	4488	1614	inactive
